Laboratory results taken from patent US20160302455A1, “Methods Of Producing An Antimicrobial Solution And Methods For Reducing Bacteria On Produce And/Or Minimizing Enzymatic Browning Of Produce” (priority 2015, published 2016).

Tests used:
L. monocytogenes = type: cell-based, Listeria monocytogenes
E. coli O157:H7 [1] = type: cell-based, Escherichia coli O157:H7
E. coli O157:H7 [2] = type: cell-based, Escherichia coli O157:H7; remark: listed apart in the source

In the case of `OO` [hydrogen peroxide], the “ELR (Estimated log reduction) of L. monocytogenes, cantaloupe” value (L. monocytogenes) is reported as 2.8 Log10 CFU/cm^2, the “Surviving population of L. monocytogenes, cantaloupe rind surface, Treated” value (L. monocytogenes) is reported as 1.09 ± 0.04B Log10 CFU/cm^2 and the “ELR (Estimated log reduction) of E. coli O157:H7, cantaloupe” value (E. coli O157:H7 [1]) is reported as 3.0 Log10 CFU/cm^2. For the same molecule, the “Surviving population of E. coli O157:H7, cantaloupe rind surface, Treated” value (E. coli O157:H7 [1]) was 1.22 ± 0.04B Log10 CFU/cm^2 and the “Surviving population of E. coli O157:H7, watermelon rind surface, Treated” value (E. coli O157:H7 [2]) was 0.53 ± 0.10A Log10 CFU/cm^2.
